## PSTVd stem 26 mutant pool in Nicotiana benthamiana

The measurements come from Wu et al. 2024 (doi:10.1371/journal.ppat.1012142).

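Three N. benthamiana plants were inoculated with the whole mutant pool. Progeny were sequenced from the inoculated region (day 5), the margin of the inoculated leaf (day 10) and systemic leaves (day 12).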

The pool varies stem 26 of the PSTVd intermediate strain in the pattern AGGGUNNCNN; wild type is AGGGUACCCU (upper and lower strand joined, each 5' to 3', the first 5 letters being the upper strand).

Numbers give reads per thousand; 0 = not seen among the reads, higher = more abundant.
Each site shows the three plants.
"Pool" is the share in the plasmid pool used as inoculum, on the same scale.
The inoculated region was read from the minus strand, the other sites from the plus strand.
IR is the inoculated region, LM the leaf margin, Sys the systemic leaves.

sequence	pool	IR	LM	Sys
AGGGUUACGG	4.14	2.65 2.18 1.55	0 0.0261 0.0298	0.430 0 0
AGGGUUACGU	4.70	2.32 3.28 1.81	0 0 0	0 0 0
AGGGUUACUA	3.47	1.42 0.840 0.989	0.0223 0 0.0298	0 0 0
AGGGUUACUC	3.85	2.98 3.33 2.45	1.09 0 1.13	0 0 0.959
AGGGUUACUG	7.25	3.10 3.36 2.54	0 0.0523 0	0 1.33 0
AGGGUUACUU	3.80	1.58 1.68 1.08	0 0 0.0893	0 0.0285 0
AGGGUUAGCU	0.0329	0.0236 0 0	0 0 0	0 0 0
AGGGUUAUCA	0.0493	0 0 0.0430	0 0 0	0 0 0
AGGGUUAUCG	0.0329	0.0473 0.0263 0	0 0 0	0 0 0
AGGGUUAUCU	0.0329	0 0 0	0 0 0	0 0 0
AGGGUUCACC	0.0329	0 0.0263 0	0 0 0	0 0 0
AGGGUUCCAA	3.60	1.75 1.68 1.12	0.0445 0 0.0298	0 0 0.0826
AGGGUUCCAC	3.17	1.68 1.55 1.42	0.0223 0 0	0 0 0
AGGGUUCCAG	4.23	2.13 1.89 1.12	0 0 0	0 0 0
AGGGUUCCAU	2.78	1.13 0.893 0.946	0.0445 0 0	0 0 0
AGGGUUCCCA	3.91	1.68 1.89 1.51	0 0 0	0 0.0143 0
AGGGUUCCCC	3.26	1.18 0.446 0.602	0 0 0.0298	0 0 0
AGGGUUCCCG	3.37	1.25 0.788 0.688	0 0 0	0 0 0
AGGGUUCCCU	4.57	2.10 2.34 2.19	0 0.131 0.684	0.505 0.143 0.215
AGGGUUCCGA	2.89	1.23 0.709 0.817	0.0223 0 0	0 0 0
AGGGUUCCGC	2.80	0.992 0.683 0.817	0 0 0	0 0 0
AGGGUUCCGG	2.85	0.756 0.368 0.559	0 0 0	0 0 0
AGGGUUCCGU	3.55	1.35 1.23 0.731	0 0 0.0298	0 0 0
AGGGUUCCUA	2.98	1.13 0.683 1.08	0 0 0	0 0 0
AGGGUUCCUC	4.36	3.33 3.28 2.71	1.16 0 0.863	0 0.0143 1.01
AGGGUUCCUG	3.09	1.28 1.05 0.860	0.779 0.287 0.0298	0 0 0
AGGGUUCCUU	3.62	2.06 1.76 1.20	0 0 0.0298	0 0.0143 0
AGGGUUGACC	0.0329	0.0236 0 0	0 0 0	0 0 0
AGGGUUGCAA	3.22	0.874 0.840 0.559	0 0 0	0 0 0
AGGGUUGCAC	3.62	1.11 1.13 0.817	0 0.0261 0	0 0 0
AGGGUUGCAG	2.96	1.11 0.971 0.774	0.0223 0 0	0 0 0.0165
AGGGUUGCAU	3.52	1.54 1.16 1.03	0.0223 0 0.0298	0 0 0
AGGGUUGCCA	5.02	1.89 2.55 1.33	0 0 0	0.149 0.0998 0.0165
AGGGUUGCCC	3.13	1.02 0.919 0.559	0 0 0	0 0 0
AGGGUUGCCG	5.35	2.15 2.49 1.98	0 0 1.34	0 0 0
AGGGUUGCCU	4.18	2.62 2.44 1.38	0 0 0.0298	0 0.0143 0.0165
AGGGUUGCGA	4.64	2.08 2.18 1.51	0 0 0	0 0.0143 0
AGGGUUGCGC	5.33	2.72 2.49 1.55	0.0223 0 0	0.448 0 0
AGGGUUGCGG	6.33	3.19 3.26 2.19	0.913 1.12 0.0298	0 0.0143 0
AGGGUUGCGU	4.47	1.87 1.73 1.72	0 0 0.357	0 0.285 0
AGGGUUGCUA	5.89	2.20 1.94 1.38	0.0223 0 0	0 0.0855 0
AGGGUUGCUC	2.62	2.17 2.42 1.72	0.979 0 0.922	0 1.64 0
AGGGUUGCUG	5.26	2.67 2.68 1.68	0.0223 0 0	0.280 0 0
AGGGUUGCUU	3.40	1.35 1.31 1.03	0.312 0.444 0	0 0.128 0
AGGGUUGGCC	0.0493	0 0 0	0 0 0	0 0 0
AGGGUUGGCG	0.0329	0.0236 0 0	0 0 0	0 0 0
AGGGUUGUCC	0.0658	1.09 1.58 1.12	1.14 0 0.803	0 0 0
AGGGUUUACA	0.0493	0.0236 0 0	0 0 0	0 0 0
AGGGUUUCAA	3.91	1.94 1.47 1.20	0.0223 0 0.0298	0.0187 0 0
AGGGUUUCAC	4.67	4.09 4.80 3.05	1.51 0 1.04	0.0187 0.0143 0
AGGGUUUCAG	4.01	1.61 1.34 0.903	0 0 0	0 0 0
AGGGUUUCAU	3.90	1.37 0.945 0.645	0 0 0	0.224 0 0.0165
AGGGUUUCCA	7.12	2.84 3.62 2.24	0 0.0784 0	0.0187 0 0
AGGGUUUCCC	4.21	2.88 4.20 2.54	0.735 0 1.40	0.112 0 0.876
AGGGUUUCCG	3.67	1.35 1.18 1.59	0.0223 0 0.0298	0 0 0
AGGGUUUCCU	4.33	1.91 2.02 1.72	0.0223 0 0	0 0.0428 0
AGGGUUUCGA	4.16	1.18 1.16 0.774	0 0 0	0 0.0143 0
AGGGUUUCGC	5.38	5.13 6.46 3.78	1.83 0.679 0.863	0 0.0285 1.12
AGGGUUUCGG	4.28	1.68 2.05 1.68	0.0445 0 0.0298	0.0187 0 0
AGGGUUUCGU	4.95	3.10 2.31 1.94	0 0 0.0298	0 0 0
AGGGUUUCUA	8.34	4.94 5.70 3.35	1.25 2.61 1.13	0.243 1.80 0.893
AGGGUUUCUC	4.72	3.21 4.02 3.61	1.14 1.91 0.922	0.336 1.20 0.793
AGGGUUUCUG	5.59	4.04 4.52 2.97	2.20 1.07 1.04	0.0374 0.0143 0.926
AGGGUUUCUU	9.79	3.87 5.49 3.05	2.72 3.03 1.25	0.0187 0.114 0.926
AGGGUUUUCC	0.0493	1.09 1.55 1.51	0.846 1.93 0.803	0.0747 1.05 0
AGGGUUUUCU	0.0329	0.0236 0 0.0430	0 0 0	0 0 0
AGGUUAACUA	0.0329	0 0 0	0 0 0	0 0 0
AGGUUACCCA	0.0329	0.0473 0 0.0860	0 0.0523 0.0595	0 0 0
AGGUUCGCCC	1.66	0.780 1.23 0.344	0 0 0.0298	0 0 0.0165
AGGUUGACUC	1.07	0.638 0.840 0.645	0 0.0261 0	0 0 0
AGGUUGCCAU	0.0493	0.0236 0 0	0 0 0	0 0 0
AGGUUUACAA	0.477	0.142 0.0788 0.0860	0 0 0	0 0 0
AGGUUUGCAG	0.0329	0 0 0	0 0 0	0 0 0
AGGUUUUCCA	0.0329	0 0 0	0 0 0	0 0 0
AGUGUUCCAC	0.0329	0 0 0	0 0 0	0 0 0
GGGGUGACUU	0.0493	0 0 0	0 0 0	0 0 0
GGUUUAACUU	0.806	0.520 0.578 0.301	0 0 0.298	0 0 0
GGUUUCCCAU	0.0329	0 0 0	0 0 0	0 0 0

The opening 8 entries, copied out:

sequence	pool	IR	LM	Sys
AGGGUUACGG	4.14	2.65 2.18 1.55	0 0.0261 0.0298	0.430 0 0
AGGGUUACGU	4.70	2.32 3.28 1.81	0 0 0	0 0 0
AGGGUUACUA	3.47	1.42 0.840 0.989	0.0223 0 0.0298	0 0 0
AGGGUUACUC	3.85	2.98 3.33 2.45	1.09 0 1.13	0 0 0.959
AGGGUUACUG	7.25	3.10 3.36 2.54	0 0.0523 0	0 1.33 0
AGGGUUACUU	3.80	1.58 1.68 1.08	0 0 0.0893	0 0.0285 0
AGGGUUAGCU	0.0329	0.0236 0 0	0 0 0	0 0 0
AGGGUUAUCA	0.0493	0 0 0.0430	0 0 0	0 0 0

With 23,251-70,159 reads a sample, very low values are single reads.
Sequences that differ at fixed positions probably stem from PCR or sequencing errors, and defective variants can be carried along by functional ones.
Wild type was 44.9 per thousand in the pool and the most common sequence in every sample (inoculated region 297, 323, 447; leaf margin 793, 829, 846; systemic leaves 974, 853, 877).